The results in this text go back to patent US8829030B2 (priority 2002, dated 2014).

Sequences of proteins named here, by UniProt entry; tags and fusion partners are left off. Residues count along the entry.
UniProt P26663, 2420-3010 limits assumed: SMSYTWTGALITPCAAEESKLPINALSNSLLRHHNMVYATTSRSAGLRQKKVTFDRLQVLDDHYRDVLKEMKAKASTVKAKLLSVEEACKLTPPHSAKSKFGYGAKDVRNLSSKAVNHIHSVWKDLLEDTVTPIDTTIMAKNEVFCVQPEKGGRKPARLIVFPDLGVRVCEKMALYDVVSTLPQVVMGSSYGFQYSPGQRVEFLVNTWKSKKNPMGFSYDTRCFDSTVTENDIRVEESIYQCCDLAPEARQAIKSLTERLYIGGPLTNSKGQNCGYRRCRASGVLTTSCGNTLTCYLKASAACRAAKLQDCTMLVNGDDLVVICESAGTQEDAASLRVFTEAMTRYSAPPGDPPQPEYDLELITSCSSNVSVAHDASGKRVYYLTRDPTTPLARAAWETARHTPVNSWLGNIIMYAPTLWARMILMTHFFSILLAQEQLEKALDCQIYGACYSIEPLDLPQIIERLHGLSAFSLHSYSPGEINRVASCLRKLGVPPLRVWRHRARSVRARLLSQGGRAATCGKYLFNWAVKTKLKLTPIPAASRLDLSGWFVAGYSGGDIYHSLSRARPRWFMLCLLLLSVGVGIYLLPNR

The target of this test is recombinant HCV RNA-dependent RNA polymerase (NS5B protein) (Hepatitis C virus genotype 1b, UniProt P26663). The test can be described thus: In vitro HCV RdRp Flashplate scintillation proximity assay (STREP-FLASH ASSAY). It is filed as biochemical, HCV-Bk strain. The following applies: read-out: Activity (polymerase activity, IC50); 100 nM recombinant HCV NS5B, 25 μM UTP, polyrA/biotinylated-oligo dT, 2 hrs at room temperature. In general terms: SPA uses beads or plates that emit light when radiolabelled molecules are held near them.

Consider `CC1CCC(C(=O)N(c2cc(-c3ccccc3)sc2C(=O)O)C2CCNCC2)CC1` (stereo not shown), for which the IC50 (as a rule, the midpoint of a concentration-inhibition curve) was below 5 µM.
